Anti-infective test results gathered from many reports (values: NIAID ChemDB through PubChem).

All rows: cytotoxicity tests; cell line: HEL; endpoint: CC50

CCn is the concentration with n% toxicity to the cells. Conditions beyond the fields shown may differ between rows. Blank or dashed fields: not listed here.

compound	method	result
Cc1cn([C@@H]2O[C@H](CO)[C@@H](O)[C@@H]2O)c(=O)[nH]c1=O		232 µM
O=c1[nH]c(=O)n([C@H]2C[C@H](O)[C@@H](CO)O2)cc1C1CCCC1		>150 µM
c1ccc(-c2ccccn2)nc1		10.47 µg/mL
Cc1cn(C[C@@H](CO)OCP(=O)(O)O)c(=O)[nH]c1=O		>400 µg/mL
C[C@H](O)C1=C[C@@H](n2cnc3c(N)ncnc32)[C@H](O)[C@@H]1O		132 µg/mL
Nc1nc(N)c2ncn(CCOCP(=O)(O)O)c2n1		40 µg/mL
Nc1nc(N)c2ncn(C3C[C@H](O)[C@@H](O)C3)c2n1		139 µg/mL
CCc1cn([C@H]2C[C@H](O)[C@@H](CO)O2)c(=O)[nH]c1=O		≥200 µM
CCCCCCCCCCCCCCCCOCCOP1(=O)CO[C@@H](Cn2cnc3c(N)nc(N)nc32)CO1		30 µM
O=C(O)CCc1ccc(O)c(O)c1		100 µg/mL
C=Cc1cn([C@H]2C[C@H](O)[C@@H](CO)O2)c(=O)[nH]c1=O		17 µM
Cc1cn([C@H]2C[C@H](O)[C@@H](CO)S2)c(=O)[nH]c1=O		0.8 µM
O=C(O)/C=C/c1ccc(O)c(O)c1.O=C(O)c1cc(O)c(O)c(O)c1		156 µg/mL
Nc1nc(Cl)c2ncn(C[C@H]3CC[C@@H](CO)C3)c2n1		2 µg/mL
Nc1ncc2ncn(CCOCP(=O)(O)O)c2n1		>400 µg/mL
Nc1cc(OC[C@@H](CO)OCP(=O)(O)O)nc(N)n1	MTS	170 µM
c1ccc([C@H]2O[C@@H]2c2ccccc2)cc1		>50 µM
CCCOC(=O)c1cc(O)c(O)c(O)c1		74 µg/mL
C[C@H](N)C(=O)OCP(=O)(OC[C@H]1O[C@@H](n2cc(/C=C/Br)c(=O)[nH]c2=O)C[C@@H]1O)Oc1ccccc1		51.7 µM
O=c1[nH]c(=O)n([C@H]2C[C@H](O)[C@@H](CO)O2)cc1/C=C/Br		339 µM
Cc1cn([C@H]2C[C@H](O)[C@@H](CO)O2)c(=O)[nH]c1=O		>200 µM
CCCCCCCCCCCCCCCCOCCOP1(=O)CO[C@@H](Cn2cnc(N)nc2=O)CO1		6.4 µg/mL
Br[C@H](c1ccccc1)[C@H](Br)c1ccccc1		>50 µM
Nc1cc(OC[C@H](CO)OCP(=O)(O)O)nc(N)n1	MTS	54 µM
Nc1ccn(C[C@@H](CO)OCP(=O)(O)O)c(=O)n1		100 µg/mL
Nc1ncnc2c1ncn2C[C@H]1COP(=O)(O)CO1		130 µM
O=C([O-])CN(CCN(CC(=O)[O-])CC(=O)[O-])CCN(CC(=O)[O-])CC(=O)[O-].[Ca+2].[Na+].[Na+].[Na+]		83.56 µg/mL
CC#Cc1cn([C@@H]2O[C@H](CO)[C@@H](O)[C@@H]2O)c(=O)[nH]c1=O		>567 µM
C[C@H]1C[C@@H](n2cnc3c(N)ncnc32)[C@H](O)[C@@H]1O		10 µg/mL
Nc1ccn(C[C@H]2COP(=O)(O)CO2)c(=O)n1	MTS	344 µM
O=c1[nH]c(=O)n([C@H]2C[C@H](O)[C@@H](CO)O2)cc1C1CCCCC1		>150 µM
O=c1ccn(CC(CO)OCP(=O)(O)O)c(=O)[nH]1		>400 µg/mL
Nc1nccc2c1ncn2C[C@@H](CO)OCP(=O)(O)O		62 µM
Oc1ccc(/C=C/c2cc(O)cc(O)c2)cc1		>400 µM
Nc1ccn(C[C@H]2COP(=O)(O)CO2)c(=O)n1		707 µM
O=c1[nH]c(=O)n([C@H]2C[C@H](O)[C@@H](CO)O2)cc1/C=C/Br		>200 µg/mL
Nc1ncnc2c1ncn2C[C@H](O)CO		183 µg/mL
O=C(O)/C=C/c1ccc(O)c(O)c1		175 µg/mL
Nc1nc2c(ncn2CCOCP(=O)(O)O)c(=O)[nH]1		2.5 µg/mL
O=c1[nH]c(=O)n([C@H]2C[C@H](O)[C@@H](CO)O2)cc1/C=C/Br		≥600 µM
CCCCCCCCCCCCCCCCOCCCOP(=O)([O-])CO[C@H](CO)Cn1cnc2c(N)nc(N)nc21		>161 µM
Nc1ncnc2c1ccn2[C@H]1C[C@H](O)[C@@H](CO)O1		74 µM
N[C@H](c1ccccc1)[C@H](N)c1ccccc1		>50 µM
O=c1ccn(CC(CO)OCP(=O)(O)O)c(=O)[nH]1		>400 µg/mL
Nc1ncnc2c1ncn2C[C@@H](CO)OCP(=O)(O)O	MTS	12 µM
C=Cc1cn([C@@H]2O[C@H](CO)[C@@H](O)[C@@H]2F)c(=O)[nH]c1=O		114 µM
O=c1[nH]c(=O)n([C@H]2C[C@H](O)[C@@H](CO)O2)cc1C1CCC1		>150 µM
C[C@@]1(CO)[C@H](O)CC[C@@]2(C)[C@H]1CCC1C[C@@H]3CC12CC[C@]3(O)COC(=O)CCC(=O)O		>45 µg/mL
Nc1ncnc2c1ncn2CCOCP(=O)(O)O		100 µg/mL
Nc1nc2c(ncn2COCCO)c(=O)[nH]1		≥800 µM
O=C(O)c1ccc(O)c(O)c1		200 µg/mL
Nc1ncnc2c1ncn2C1C[C@H](O)[C@@H](O)C1		110 µg/mL
Nc1nc2c(nnn2C[C@H]2CC[C@@H](CO)C2)c(=O)[nH]1		150 µg/mL
Oc1cccc(O)c1O		165 µg/mL
CCc1cn([C@H]2C[C@H](O)[C@@H](CO)O2)c(=O)[nH]c1=O		8.2 µM
O=C(O)/C=C/c1ccc(O)c(O)c1		46 µg/mL
O=C(O)c1cc(O)c(O)c(O)c1		100 µg/mL
Nc1nc(Cl)c2nnn(C[C@H]3CC[C@@H](CO)C3)c2n1		100 µg/mL
CCc1cn([C@@H]2O[C@H](CO)[C@@H](O)[C@@H]2O)c(=O)[nH]c1=O		>588 µM
C(=C/c1ccccc1)/c1ccccc1		>50 µM
O=c1[nH]c(=O)n(C2CC(O)C(CO)O2)cc1/C=C/Br		>250 µM
Nc1ncnc2c1ncn2[C@@H]1C=C(CO)[C@@H](O)[C@H]1O		21 µg/mL
Nc1ccn([C@H]2CC[C@@H](CO)O2)c(=O)n1	MTS	231 µM
O=c1[nH]cnc2c1ncn2C[C@@H](CO)OCP(=O)(O)O		>400 µg/mL
Nc1ccn([C@@H]2CS[C@H](CO)O2)c(=O)n1	MTS	208 µM
Nc1nc2c(ncn2[C@@H]2O[C@H](CO)[C@H]2CO)c(=O)[nH]1		300 µM
Nc1ccn(C[C@@H](CO)OCP(=O)(O)O)c(=O)n1		100 µg/mL
Nc1ccn(C[C@@H](CO)OCP(=O)(O)O)c(=O)n1	MTS	83 µM
Cc1cc(=O)oc2cc(O)c(O)cc12		161 µg/mL
C[C@@H](O)C1=C[C@@H](n2cnc3c(N)ncnc32)[C@H](O)[C@@H]1O		>50 µg/mL
Nc1ncc2c(ncn2COC(CO)CO)n1		418 µM

Repeating the final 7 entries:

| compound | method | result |
|---|---|---|
| Nc1ccn([C@@H]2CS[C@H](CO)O2)c(=O)n1 | MTS | 208 µM |
| Nc1nc2c(ncn2[C@@H]2O[C@H](CO)[C@H]2CO)c(=O)[nH]1 |  | 300 µM |
| Nc1ccn(C[C@@H](CO)OCP(=O)(O)O)c(=O)n1 |  | 100 µg/mL |
| Nc1ccn(C[C@@H](CO)OCP(=O)(O)O)c(=O)n1 | MTS | 83 µM |
| Cc1cc(=O)oc2cc(O)c(O)cc12 |  | 161 µg/mL |
| C[C@@H](O)C1=C[C@@H](n2cnc3c(N)ncnc32)[C@H](O)[C@@H]1O |  | >50 µg/mL |
| Nc1ncc2c(ncn2COC(CO)CO)n1 |  | 418 µM |